Anti-infective test results gathered from many reports (values: NIAID ChemDB through PubChem).

Shared fields: whole-cell or culture tests; organism: Mycobacterium tuberculosis

Rows are shuffled and stem from different studies. Inhibition is in % at the dose shown (toxicity tests: loss of growth or viability). An empty or dashed field is not shown. MIC50, MIC90 and the like: level of inhibition, or share of isolates inhibited. ECn: concentration that inhibits the pathogen or its effect by n%. MIC bound comes from a single tested concentration.

SMILES | conditions | cells | strain or isolate | endpoint | changes | tested at | read by | result
CC(Oc1cccc([N+](=O)[O-])c1)C(=O)N/N=C1\CCOc2ccccc21 |  |  | H37Rv | EC50 |  |  |  | ~40 µg/mL
CC(=O)c1ccccc1O |  |  | H37Rv | MIC |  |  |  | >100 µg/mL
Cc1cc(Oc2ccc([N+](=O)[O-])c3cccnc23)cc(C)c1Cl |  |  | H37Rv | MIC |  |  |  | 1 µg/mL
NC1=NNC(=O)C1N=Nc1ccc(S(=O)(=O)Nc2nccs2)cc1 |  |  | H37Rv | MIC bound |  |  | BACTEC | >12.5 µg/mL
CCC(C(=O)O)c1ccc(N)cc1 |  |  | H37Rv | MIC |  |  |  | 100 µg/mL
O=C(NCc1ccc(N2CCN(Cc3ccccc3)CC2)cc1)c1ccc([N+](=O)[O-])o1 |  |  | UT26 | MIC |  |  |  | 0.012 µg/mL
O=C(NNC(=O)c1ccccc1O)c1ccccc1O |  |  |  | MIC |  |  |  | >200 µg/mL
CCOC(=O)Nc1cc(NC/C(=N/O)c2ccccc2)c([N+](=O)[O-])c(N)n1 |  |  | H37Rv | EC50 |  |  |  | >12.5 µg/mL
CCCCCCCCCCCCCCCCNC(CC(=O)O)[C@H]1O[C@@H]2OC(C)(C)O[C@@H]2[C@H]1OC |  |  | H37Rv | MIC |  |  |  | 100 µg/mL
CO[C@H]1/C=C/O[C@@]2(C)Oc3c(C)c(O)c4c(c3C2=O)C(=O)C=C(NC(=O)/C(C)=C\C=C\[C@H](C)[C@H](OC=O)[C@@H](C)[C@@H](O)[C@@H](C)[C@H](OC(C)=O)[C@@H]1C)C4=O |  | VERO | H37Rv | MIC |  |  | BACTEC | 0.2 µg/mL
NC(=O)CNc1cccc(NCC(N)=O)c1 |  |  | H37Rv | MIC |  |  |  | >100 µg/mL
O=C1C=CC(=CC=C2C=CN(CCCCCCO)C=C2)C=C1 |  |  | H37Rv | MIC bound |  |  | BACTEC | >12.5 µg/mL
CC(C)(C)NC(=O)C1c2ccccc2CCN1c1cc2c(=O)c(C(=O)O)c3n(c2cc1F)CS3 |  |  | H37Rv | MIC |  |  | agar | 3.24 µM
O=C(N/N=C/c1c(Cl)cccc1Cl)c1ccccc1Cl |  |  |  | MIC |  |  |  | >40 µg/mL
Cc1c(N(C)C)c(=O)n(-c2ccccc2)n1C |  |  | H37Rv | MIC |  |  | BACTEC | ≥12.8 µg/mL
CC(=O)N/N=C/c1ccoc1 |  |  |  | MIC |  |  |  | 200 µg/mL
Clc1ccc(-c2c(C(c3ccccc3)n3ccnc3)cnn2-c2ccccc2)cc1 |  |  | ATCC 35837 (ethambutol-resistant) | MIC90 |  |  |  | ≥100 µM
CCOC(=O)Nc1cc(N)c([N+](=O)[O-])c(NCCc2ccc(S(C)(=O)=O)cc2)c1 |  |  | H37Rv | EC50 |  |  |  | >12.5 µg/mL
[Na+].[Na+].[O-]/C(=N\N=C(\[O-])c1ccccc1)c1ccccc1 |  |  |  | MIC |  |  |  | >200 µg/mL
CCOC(=O)Nc1cc(NC(c2ccccc2)c2ccccc2)c2nc(-c3cc(OC)c(OC)c(OC)c3)cnc2n1 |  |  | H37Rv | EC50 |  |  |  | >12.5 µg/mL
O=C(O)c1c2n(c3cc(F)c(N4CCC5(CC4)OCCO5)cc3c1=O)CS2 |  |  | H37Rv | MIC | MDR-TB |  | agar | 0.99 µM
Clc1ccc(-c2c(C(c3ccccc3)n3ccnc3)cnn2-c2ccc(Cl)cc2)cc1 |  |  | ATCC 35822 (isoniazid-resistant) | MIC50 |  |  |  | ≥100 µM
Cc1cc(-c2ccc(N=Nc3c(N)c(C)cc(S(=O)(=O)[O-])c3N)c(C)c2)ccc1N=Nc1ccc([O-])c(C(=O)O)c1.[Na+].[Na+] |  |  | H37Rv | inhibition |  | 12.5 µg/mL | BACTEC | 0%
Nc1c[nH]c(=O)[nH]c1=O |  |  | H37Rv | MIC |  |  |  | >100 µg/mL
Fc1ccc(-c2c(C(c3ccccc3)n3ccnc3)cnn2-c2ccc(F)cc2F)cc1 |  |  | ATCC 35822 (isoniazid-resistant) | MIC90 |  |  |  | ≥100 µM
Nc1ccc(Sc2ccc(Cl)cc2Cl)c2ncccc12 |  |  | H37Rv | MIC |  |  |  | 0.02 µg/mL
CC(C)C1=C(O)C2=C(C(=O)C1=O)[C@@]1(C)CCCC(C)(C)[C@@H]1[C@H](O)[C@H]2OC=O |  |  | H37Rv | inhibition |  | 12.5 µg/mL | BACTEC | 30%
CCCCCCC(O)C/C=C\CCCCCCCC(=O)N/N=C/c1ccccc1 |  |  |  | MIC |  |  |  | >200 µg/mL
CO/N=C1\CN(c2nc3c(cc2F)c(=O)c(C(=O)O)cn3C2CC2)CC1CN |  |  | 82 strains | MIC90 |  |  |  | >4 µg/mL
CC(=O)N1C(=O)N(Cl)C(=O)C1(c1ccc(Cl)cc1)c1ccc(Cl)cc1 |  |  | H37Rv | MIC bound |  |  | BACTEC | >12.5 µg/mL
O=[N+]([O-])c1ccc(S(=O)(=O)c2ccc3ccccc3c2)c2ncccc12 |  |  | H37Rv | MIC |  |  |  | 40 µg/mL
O=C(O)c1c2n(c3cc([N+](=O)[O-])c(N4CCN(C(c5ccccc5)c5ccc(Cl)cc5)CC4)cc3c1=O)CS2 |  |  | H37Rv | MIC |  |  | agar | 5.56 µM
N=C(N)N=Nc1cc(O)c(NN=C(N)N)cc1O |  |  | H37Rv | MIC bound |  |  | BACTEC | >12.5 µg/mL
S=c1[nH]nc(-c2ccccc2)o1 |  |  |  | MIC |  |  |  | 200 µg/mL
C=C1CCOC2(C(O)C(C)(O)CO)NC(=O)C1(O)NC2=O |  |  | H37Rv | MIC |  |  | BACTEC | ≥12.5 µg/mL
CN1CCN(c2cc3c(=O)c(C(=O)O)c4n(c3cc2[N+](=O)[O-])CS4)CC1c1ccccc1 |  |  | H37Rv | MIC | MDR-TB |  | agar | 3.45 µM
CCOC(=O)CC(NC(C)CCCC(C)C)[C@H]1O[C@@H]2OC(C)(C)O[C@@H]2[C@H]1OCc1ccccc1 |  |  | H37Ra | MIC |  |  |  | >25 µg/mL
O=C(O)c1c2n(c3cc([N+](=O)[O-])c(N4CCN(C(=O)C5COc6ccccc6O5)CC4)cc3c1=O)CS2 |  |  | H37Rv | MIC |  |  | agar | 5.97 µM
Nc1ccccc1Sc1ccc(N)c2cccnc12 |  |  | H37Rv | MIC |  |  |  | 100 µg/mL
CC(C)C1CC=C(C#N)CC1 |  |  | H37Rv | MIC |  |  |  | >100 µg/mL
O=[N+]([O-])[O][Ga]([O][N+](=O)[O-])[O][N+](=O)[O-] | inside macrophages |  | MDR isolates | EC50 |  |  |  | <500 µM
Clc1ccc(-n2ncc(C(c3ccccc3)n3ccnc3)c2-c2ccccc2)cc1 |  |  | ATCC 27294 | MIC90 |  |  |  | 84 µM
Cc1cc(Cl)nc(Cl)c1CCCl |  |  | H37Rv | MIC |  |  |  | >100 µg/mL
CCOC(=O)Nc1cc(NCC(O)CN(C)c2ccccc2)c([N+](=O)[O-])c(N)n1 |  |  | H37Rv | EC50 |  |  |  | <12.5 µg/mL
S=c1[nH]c2ccc(Br)cc2[nH]1 |  |  | H37Rv | MIC |  |  |  | 100 µg/mL
O=C(NNS(=O)(=O)c1ccc(Cl)cc1)c1ccccc1 |  |  |  | MIC |  |  |  | 200 µg/mL
CCN(CC)CCCS |  |  | H37Rv | MIC |  |  |  | >100 µg/mL
Cc1ccccc1S(=O)(=O)c1ccc(N)c2cccnc12 |  |  | H37Rv | MIC |  |  |  | 0.1 µg/mL
Cc1c2c(c(C)c3c1[nH]c1ccccc13)C(C#N)N(C(=O)c1ccccc1)C=C2 |  |  | H37Rv | MIC |  |  | resazurin | 1.56 µg/mL
COC(=O)c1cc(N)cc(C(=O)OC)c1 |  |  | H37Rv | MIC |  |  |  | >100 µg/mL
CC(=O)OC1CC2C(C)(C)CCCC2(C)C2C(=O)C(O)=C(C(C)C)C(=O)C12 |  |  | H37Rv | MIC bound |  |  | BACTEC | ≤12.5 µg/mL
O=C(NCc1ccc(N2CCN(Cc3ccccc3)CC2)nc1)c1ccc([N+](=O)[O-])o1 |  |  | UT29 | MIC |  |  |  | 0.024 µg/mL
Clc1ccc(-c2c(C(c3ccccc3)n3ccnc3)cnn2-c2ccc(Cl)cc2Cl)cc1 |  |  | ATCC 35820 (streptomycin-resistant) | MIC90 |  |  |  | ≥100 µM
O=C(OC1CCCCC1)c1cc(NC(=S)c2ccsc2)ccc1Cl |  |  | H37Rv | inhibition |  | 12.5 µg/mL | BACTEC | 69%
CC(=O)Nc1ccc2sc3ccccc3c2c1 |  |  | H37Rv | MIC |  |  |  | >100 µg/mL
NNC(=O)c1ccncc1 |  |  | ATCC 35828 (pyrazinamide-resistant) | MIC50 |  |  |  | 0.1 µM
O=C(O)c1cc(=O)n(-c2nc3ccccc3s2)[nH]1 |  |  | H37Rv | MIC |  |  |  | >100 µg/mL
COc1c2c(c3c(c1CCC(=O)O)OC(C)(C)C=C3)OC(C)(C)C=C2 |  |  | H37Rv | MIC bound |  |  | BACTEC | >12.5 µg/mL
Fc1ccc(-n2ncc(C(c3ccccc3)n3ccnc3)c2-c2ccccc2)cc1 |  |  | ATCC 35822 (isoniazid-resistant) | MIC90 |  |  |  | ≥100 µM
O=C(c1ccc([N+](=O)[O-])o1)N1CCc2cc(N3CCN(Cc4ccccc4)CC3)ccc2C1 |  |  | CDC1551 | MIC |  |  |  | 0.1 µg/mL
CC(=O)Nc1ccc(C(=O)NN=C(C)C)cc1 |  |  |  | MIC |  |  |  | >40 µg/mL
CO[C@H]1/C=C/O[C@@]2(C)Oc3c(C)c(O)c4c(O)c(c5c(c4c3C2=O)NC2(CCN(CC(C)C)CC2)N=5)=NC(=O)/C(C)=C\C=C\[C@H](C)[C@H](O)[C@@H](C)[C@@H](O)[C@@H](C)[C@H](OC(C)=O)[C@@H]1C |  |  | 510-3 (RIF-R) | MIC |  |  |  | 2 µg/mL
CCCC1C2=C(C(=O)OC2=O)C2C(CC)CC3=C(C(=O)OC3=O)C12 |  |  | H37Rv | MIC |  |  | BACTEC | ≥12.8 µg/mL
Nc1ccc(S(=O)(=O)c2nc3ccccc3s2)c2ncccc12 |  |  | H37Rv | MIC |  |  |  | 100 µg/mL
CCOC(=O)CCN.Cl |  |  | H37Rv | MIC |  |  |  | >100 µg/mL
Nc1ccc(Sc2c(Cl)cccc2Cl)c2ncccc12 |  |  | H37Rv | MIC |  |  |  | 100 µg/mL
O=C(NN(C(=O)c1ccccc1)c1ccccc1)c1ccccc1 |  |  |  | MIC |  |  |  | >200 µg/mL
NC(=O)c1nccnc1N |  |  | H37Rv | MIC |  |  | BACTEC | ≥12.5 µg/mL
Clc1ccc(-n2ncc(C(c3ccccc3)n3ccnc3)c2-c2ccccc2)c(Cl)c1 |  |  | ATCC 35828 (pyrazinamide-resistant) | MIC50 |  |  |  | 48.9 µM
COC1/C=C\C=C(/C)C(=O)Nc2cc3nc4ccc(Br)cc4oc-3c(c2=O)CC(C)CC(OC)C(O)C(C)/C=C(\C)C1OC(N)=O |  |  | H37Rv | MIC |  |  | BACTEC | ≥12.5 µg/mL
CN(C)c1ccc(C(=O)C(=O)c2ccccc2)cc1 |  |  | H37Rv | MIC |  |  |  | 25 µg/mL
Cc1c(F)c(N2CCNC(C)C2)cc2c1c(=O)c(C(=O)O)cn2C1CC1 |  |  | 37 strains (drug-resistant) | MIC50 |  |  |  | 1 µg/mL
CC(C)NS(=O)(=O)c1nc2ccccc2s1 |  |  | H37Rv | MIC |  |  |  | >100 µg/mL
O=C1CC(N2C(=O)c3ccccc3C2=O)C(=O)N1 |  |  | H37Rv | inhibition |  | 12.5 µg/mL | BACTEC | -2%
CCCNC(=S)NCCC |  |  | H37Rv | MIC |  |  |  | 100 µg/mL
O=C(O)c1c2n(c3cc([N+](=O)[O-])c(N4CCC(n5c(=O)[nH]c6ccc(Cl)cc65)CC4)cc3c1=O)CS2 |  |  | H37Rv | MIC | MDR-TB |  | agar | 0.36 µM
CC(=O)Nn1nnc2ccccc2c1=O |  |  | H37Rv | inhibition |  | 12.5 µg/mL | BACTEC | 16%
CC(=O)N1c2ccc([N+](=O)[O-])cc2S(=O)c2cc([N+](=O)[O-])ccc21 |  |  | H37Rv | MIC |  |  |  | >100 µg/mL
O=[N+]([O-])c1ccc(N=Nc2c(Cl)c(O)c3ccccc3c2O)nc1 |  |  | ETA-R | MIC |  |  |  | >12.5 µg/mL
Clc1cccc(SSc2cccc(Cl)c2Cl)c1Cl |  |  | H37Rv | MIC |  |  |  | >100 µg/mL
CCOC(=O)CCCNC(CC(=O)OCC)[C@H]1O[C@@H]2OC(C)(C)O[C@@H]2[C@H]1OC |  |  | H37Rv | MIC |  |  |  | 100 µg/mL
O=C(O)c1cc(O)ccc1Cl |  |  | H37Rv | MIC |  |  |  | >100 µg/mL
C(=N\N1CN(/N=C/c2ccccc2)[C@H](c2ccccc2)C1c1ccccc1)/c1ccccc1 |  |  | H37Rv | MIC bound |  |  | BACTEC | >12.5 µg/mL
COc1ccc(CC(=O)O)cc1 |  |  | H37Rv | MIC |  |  |  | >100 µg/mL
CCOC(=O)Nc1cc(N(C)C(c2ccccc2)c2ccccc2)c([N+](=O)[O-])c(N)n1 |  |  | H37Rv | EC50 |  |  |  | >12.5 µg/mL
CCCCCCCCc1ccncc1 |  |  | H37Rv | MIC |  |  |  | 100 µg/mL
CCCCNC(CC(=O)OCC)[C@H]1O[C@@H]2OC(C)(C)O[C@@H]2[C@H]1OCc1ccccc1 |  |  | H37Rv | MIC |  |  |  | 50 µg/mL